Measured values from several laboratories, pooled; numbers as filed in NIAID ChemDB.

All rows: growth or infection tests; agent: Semliki Forest virus

An empty or dashed field is not shown. ECn is the concentration giving n% inhibition of infection, replication or growth. Neighbouring rows are from separate reports.

compound	method	cells	read-out	result
CC(=O)OCCOCN1C(N)=CC(N)=NS1(=O)=O	-	VERO	EC50	>400 µg/mL
CC=NC(=N)c1nc(-c2ccc(OC)cc2)n(C/C=C/c2ccccc2)n1	cytopathic effect	VERO	EC50	>100 µg/mL
Cc1ccn2c(C(SCCc3ccccc3)SCCc3ccccc3)cnc2c1	-	VERO	EC50	>1000 µM
Nc1nccc2c1ncn2[C@@H]1CC[C@@H](O)[C@H]1O	-	-	MIC	>100 µg/mL
CC=NC(=N)c1nc(-c2ccc(C)cc2)n(COCCO)n1	cytopathic effect	VERO	EC50	>100 µg/mL
CC(=O)OCCOCN1C(C)=CC(N)=[N+](c2ccccc2)S1(=O)=O	-	VERO	EC50	>400 µg/mL
Nc1nccc2c1ncn2[C@@H]1C[C@H](CO)[C@@H](O)[C@H]1O	-	-	MIC	>400 µg/mL
Cc1ccn2c(C3SCCS3)cnc2c1	-	VERO	EC50	>1000 µM
CCOC(=O)C1=CN(COCCO)S(=O)(=O)NC1=O	-	VERO	EC50	>400 µg/mL
Cc1ccn2c(C3OCCO3)cnc2c1	-	VERO	EC50	>1000 µM
CC(=O)OCCOCN1C=CC(=O)NS1(=O)=O	-	VERO	EC50	>400 µg/mL
Nc1ncnc2c1ncn2[C@@H]1CC[C@@H](O)[C@H]1O	-	-	MIC	>100 µg/mL
Cc1cccn2c(C3OCCO3)cnc12	-	VERO	EC50	>1000 µM
C/C(O)=C1\C(=N)N(COCCO)S(=O)(=O)N=C1N	-	VERO	EC50	>400 µg/mL
CC=NC(=N)c1nc(-c2cccc(C)c2)n(C/C=C/c2ccccc2)n1	cytopathic effect	VERO	EC50	>10 µg/mL

The first 2 rows once more:

compound | method | cells | read-out | result
CC(=O)OCCOCN1C(N)=CC(N)=NS1(=O)=O | - | VERO | EC50 | >400 µg/mL
CC=NC(=N)c1nc(-c2ccc(OC)cc2)n(C/C=C/c2ccccc2)n1 | cytopathic effect | VERO | EC50 | >100 µg/mL